Anti-infective test results gathered from many reports (values: NIAID ChemDB through PubChem).

ECn is the concentration giving n% inhibition of infection, replication or growth. A number after MIC or MFC names an inhibition level or a share of isolates. Conditions beyond the fields shown may differ between rows. An empty or dashed field is not shown. Inhibition is in % at the dose shown (toxicity tests: loss of growth or viability). ICn is the concentration giving n% inhibition.

compound,tested at,cell line,protein,read by,strain,read-out,agent,kind,result
C=CCc1ccc(O)c(OC)c1,-,-,-,turbidity,2508,MIC90,Candida albicans,culture,475 µg/mL
COc1ccc(N2CCN(c3cncc(-c4ccccc4CO)n3)CC2)cc1OC,-,-,UL97 kinase,-,-,IC50,Cytomegalovirus,target,<100 µM
O=C(Nc1c(S(=O)(=O)[O-])cc2cc(S(=O)(=O)[O-])cc(O)c2c1O)c1ccccc1,10 µg/mL,Human conjunctiva cells,-,cytopathic effect,-,inhibition,Herpes simplex virus,culture,0%
COc1cccc(-c2cncc(N3CCN(c4cccc(Cl)c4)CC3)n2)c1,-,-,UL97 kinase,-,-,IC50,Cytomegalovirus,target,<10 µM
O=S(=O)(O)c1cc(O)c2c(O)c(N=Nc3ccccc3)c(S(=O)(=O)O)cc2c1,50 µg/mL,Human embryonic lung cells,-,cytopathic effect,TYPE 3,inhibition,Adenovirus,culture,25%
Oc1ccccc1N=Cc1ccc2c(c1)OCO2,-,-,-,-,27JF,MIC99,Cryptococcus neoformans,culture,11.3 µg/mL
CCOC(=O)c1ccc(OCCC2CCN(c3ccc(C)nn3)CC2)cc1,-,KB,-,neutral red,1983-CV48 (ICAM-1 receptor group 66),EC50,Rhinovirus,culture,0.002 µM
c1ccc(Oc2ccc(-c3cncc(N4CCN(c5ccccc5)CC4)n3)cc2)cc1,10 µM,-,UL97 kinase,-,-,inhibition,Cytomegalovirus,target,>15%
CCOC(=O)c1c(C)nc(NCCCCNc2ccnc3cc(Cl)ccc23)nc1-c1ccc(F)cc1,-,-,-,-,196L/03,MIC99,Cryptococcus gattii,culture,8 µg/mL
O=C(O)c1cc(S(=O)(=O)[O-])ccc1O,50 µg/mL,Human embryonic lung cells,-,cytopathic effect,-,inhibition,Rhinovirus,culture,0%
CCC(CC)[C@H](NC(C)=O)[C@@H]1[C@H](O)[C@@H](C(=O)O)C[C@H]1N=C(N)N,-,MDCK,-,visual reading,Influenza A/Johannesburg/33/94 (H3N2),EC50,Influenza A virus,culture,0.07 µM
O=C(Nc1ccc2cc(S(=O)(=O)[O-])cc(S(=O)(=O)[O-])c2c1)c1ccccc1,5 µg/mL,Human amnion AV3 cells,-,cytopathic effect,-,inhibition,Herpes simplex virus,culture,15%
Oc1ccccc1N=Cc1cccc(O)c1O,-,-,-,-,28JF,MIC99,Cryptococcus neoformans,culture,4 µg/mL
COc1ccc(N2CCN(c3cncc(-c4csc5ccccc45)n3)CC2)cc1,1 µM,-,UL97 kinase,-,-,inhibition,Cytomegalovirus,target,<50%
O=[N+]([O-])c1ccc(C=Nc2ccccc2O)cc1,-,-,-,-,547/OTTI-97-PI-10,MIC99,Cryptococcus gattii,culture,16 µg/mL
O=S(=O)([O-])c1ccc(NS(=O)(=O)c2ccccc2)c2c(S(=O)(=O)[O-])cccc12,50 µg/mL,Human embryonic lung cells,-,cytopathic effect,-,inhibition,Rhinovirus,culture,68%
Fc1ccc(N2CCCCC2)c(NC(=S)c2ccncc2)c1,10 µM,-,SRPK1,kinase activity,-,inhibition,-,host protein,6%
CCOC(=O)c1c(C)nc(NCCCCNc2ccnc3cc(Cl)ccc23)nc1-c1ccccc1[N+](=O)[O-],-,-,-,-,23/10993,MIC99,Cryptococcus gattii,culture,5.7 µg/mL
O=C(Nc1ccc(S(=O)(=O)[O-])c2cccc(S(=O)(=O)[O-])c12)c1ccccc1,10 µg/mL,Human amnion AV3 cells,-,cytopathic effect,-,inhibition,Herpes simplex virus,culture,0%
COc1cccc(N2CCN(c3cncc(-c4ccoc4)n3)CC2)c1,10 µM,-,UL97 kinase,-,-,inhibition,Cytomegalovirus,target,>15%
Oc1ccccc1N=Cc1ccc(F)cc1,-,-,-,-,C-3-1,MIC99,Cryptococcus neoformans,culture,4 µg/mL
O=S(=O)([O-])c1ccc2c(O)cc(S(=O)(=O)[O-])cc2c1,50 µg/mL,Human amnion AV3 cells,-,cytopathic effect,TYPE 3,inhibition,Adenovirus,culture,0%
CCOC(=O)c1c(C)nc(OCCCNc2ccnc3cc(Cl)ccc23)nc1-c1ccccc1,-,-,-,-,196L/03,MIC99,Cryptococcus gattii,culture,8 µg/mL
O=S(=O)(O)c1cccc2c(O)cccc12,10 µg/mL,Human embryonic lung cells,-,cytopathic effect,-,inhibition,Rhinovirus,culture,0%

A second listing of 4 rows from above:

O=[N+]([O-])c1ccc(C=Nc2ccccc2O)cc1 ; strain: 547/OTTI-97-PI-10 ; read-out: MIC99 ; agent: Cryptococcus gattii ; kind: culture ; result: 16 µg/mL
O=S(=O)(O)c1cccc2c(O)cccc12 ; tested at: 10 µg/mL ; cell line: Human embryonic lung cells ; read by: cytopathic effect ; read-out: inhibition ; agent: Rhinovirus ; kind: culture ; result: 0%
O=S(=O)([O-])c1ccc2c(O)cc(S(=O)(=O)[O-])cc2c1 ; tested at: 50 µg/mL ; cell line: Human amnion AV3 cells ; read by: cytopathic effect ; strain: TYPE 3 ; read-out: inhibition ; agent: Adenovirus ; kind: culture ; result: 0%
Oc1ccccc1N=Cc1ccc2c(c1)OCO2 ; strain: 27JF ; read-out: MIC99 ; agent: Cryptococcus neoformans ; kind: culture ; result: 11.3 µg/mL